PubChem BioAssay AID1224833 – University of Georgia | 2016

Screen: 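Human genes whose knock-down alters rotavirus replication in monkey cells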 (primary screen)
Cells: monkey MA104 kidney cells
Reagents: siRNA pool against human genes, 50 nM
Timing: 48 h knock-down before infection; read 24 h after infection
Treatment: infection with rotavirus strain RV3 two days after transfection; infectious dose for this stage not given
Measured: 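z-score of rotavirus antigen signal per well, from a fluorescent immunoassay, relative to non-targeting control wells on the same plate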
Reading the numbers: z-score vs non-targeting control: higher = more rotavirus replication than with non-targeting control
Rule for the call: In these data the active calls have z-score vs non-targeting control at about -1 or lower, or at about 1 or higher
Calls: active = z-score beyond 1 either way; inactive = z-score within 1 of zero
The deposit covers about 12,000 reagents; shown is an unselected part. About 5,600 of all reagents (46%) were called active. 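Active calls cover z-scores past 1 in both directions, so they include lowered as well as raised rotavirus replication.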 Unmarked entries are inactive. No sequences are given here.

no.	Gene	z-score vs non-targeting control
1	CARS1	2.3 (active)
2	CSRNP2	-0.545
3	MFAP2	1.36 (active)
4	HTT	-1.1 (active)
5	CCL5	-0.803
6	AP1S1	-0.519
7	DNAI7	-1.33 (active)
8	SPRY2	0.378
9	KAT2A	-0.688
10	RASSF6	-1.99 (active)
11	CIITA	-0.976
12	LSM14A	2.34 (active)
13	CXXC5	-0.47
14	CLDN12	-0.809
15	ERICH5	1.07 (active)
16	NELFE	-0.891
17	SMU1	0.242
18	GLS2	0.651
19	SRXN1	-1.41 (active)
20	PLCB4	-1.15 (active)
21	ELOC	-1.3 (active)
22	POLA1	-1.84 (active)
23	GJA4	-1.51 (active)
24	ATP4A	-1.9 (active)
25	SNX14	-2.35 (active)
26	CHAF1B	1.12 (active)
27	DBX2	-1.54 (active)
28	BRMS1	-1.36 (active)
29	SSTR3	1.8 (active)
30	BEST4	0.643
31	STOML2	-1.57 (active)
32	CES3	-1.89 (active)
33	WDR35	-0.41
34	ZIM3	-2.11 (active)
35	SHISA2	-1.08 (active)
36	OMG	-1.08 (active)
37	SAMM50	-0.667
38	EIF4G1	1.14 (active)
39	GSDME	0.292
40	SERINC4	0.238
41	SEMA4F	0.331
42	SPACDR	-2.2 (active)
43	THSD4	-1.58 (active)
44	PLSCR4	1.39 (active)
45	C2CD2	0.135
46	BTAF1	-1.59 (active)
47	ENPP6	-1.26 (active)
48	OFD1	-0.656
49	FKBP3	-2.48 (active)
50	MSANTD2	0.476
51	FOXO1	-1.34 (active)
52	ATP5MC1	-0.616
53	HAUS7	0.716
54	SAT1	-0.589
55	SVEP1	0.575
56	MRPL41	1.22 (active)
57	MLLT3	0.0791
58	CLVS2	-0.512
59	UGGT1	1.43 (active)
60	RAD51D	0.534
61	MB	-0.346
62	WDR62	3.04 (active)
63	PRR3	-1.1 (active)
64	DAND5	-1.43 (active)
65	YPEL5	-0.0225
66	EDN3	0.928
67	NXPH2	1.13 (active)
68	RGS10	-2.31 (active)
69	C9orf43	-1.17 (active)
70	SLC39A9	-2.07 (active)
71	THAP3	1.09 (active)
72	INTS3	-0.672

Entries listed so far whose gene name starts with H or h (2):
Gene	z-score vs non-targeting control
HTT	-1.1 (active)
HAUS7	0.716

Next results follow.
no.	Gene	z-score vs non-targeting control
73	LTBP4	-0.0721
74	FSCN2	-0.496
75	MICU3	-1.63 (active)
76	GAL	-6.6 (active)
77	STAC2	0.577
78	RAPGEFL1	0.12
79	EMCN	-0.828
80	RGL2	-0.825
81	CREBZF	-2.03 (active)
82	CYBA	-1.98 (active)
83	FAM50B	-1.02 (active)
84	MAGEL2	-1.06 (active)
85	OLFML1	-2.01 (active)
86	ZNF580	-1.34 (active)
87	ESR1	-0.728
88	ADAMTS17	1.18 (active)
89	HGS	-0.811
90	DGCR8	-0.102
91	MLX	-1.3 (active)
92	CORO1B	-1.39 (active)
93	GINS2	2.34 (active)
94	ZDHHC16	2.15 (active)
95	SHCBP1	-0.807
96	MOCS2	-1.2 (active)
97	TPRG1	2.1 (active)
98	PLAAT2	-0.849
99	HYCC1	-1.47 (active)
100	HOMER1	-1.59 (active)
101	RHOXF1	-1.02 (active)
102	WDR53	1.53 (active)
103	RPL21	-0.154
104	ZFAND4	-3.05 (active)
105	TOX	-0.537
106	ACTL10	-3.6 (active)
107	HS2ST1	-0.587
108	TTC23	1.76 (active)
109	PRSS16	0.531
110	CD2BP2	-0.62
111	NRXN1	-1.27 (active)
112	GFRA2	-1.16 (active)
113	QKI	-1.02 (active)
114	ARMC6	0.622
115	ITGB7	0.716
116	CELF5	-0.634
117	TMEM59L	-1.01 (active)
118	CNST	0.458
119	SNURF	0.326
120	QNG1	0.179
121	DMWD	0.175
122	RBP7	-0.988
123	VEZT	0.306
124	NUP62CL	-1.42 (active)
125	SYNGR3	-1.6 (active)
126	LCLAT1	-0.807
127	NUP205	-1.06 (active)
128	FNBP1	-1.03 (active)
129	LSS	-1.52 (active)
130	PNMA2	-1.09 (active)
131	TAF7L	0.615
132	NSUN3	-1.12 (active)
133	THSD1	-1.33 (active)
134	MYOZ1	-1.5 (active)
135	CASKIN2	1.61 (active)
136	MORF4L2	-0.423
137	ANKRD16	-1.19 (active)
138	IGSF9	-1.26 (active)
139	EFHB	1.26 (active)
140	TMEM232	-0.478
